The values below come from the supplement of paper PMC12637763.

The other results are listed elsewhere or left out. Env chains of viruses from a treatment-interruption trial, translated from the printed DNA. IC50 / IC80 of two broadly neutralizing antibodies; lower = more sensitive virus; >50 µg/ml means not reached and <0.001 µg/ml is below the lowest dose. No active / inactive call.

Test [1] has as its target antibody 10-1074. In words: neutralization IC50; higher = virus less sensitive to the antibody. As for the experimental part: (§1)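 Pseudovirus bearing the Env chain mixed with antibody, from 50 µg/ml in fivefold dilutions, on TZM-bl reporter cells, in duplicate.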
The target in test [2] is antibody 3BNC117. Described as above. As for the experimental part: as §1
Test [3] concerns the target antibody 10-1074. Description: neutralization IC80; higher = virus less sensitive to the antibody. As for the experimental part:
as §1

The target of test [4] is antibody 3BNC117. The description is as above. As for the experimental part: as §1

B1: HIV-1 Env, reservoir clone (protein)
chain: MRVKGIKRNCQRLWRWGTMLLEMLMICSAADNLWVTVYYGVPVWKDATTTLFCASDAKGYETEVHNVWATHACVPTDPSPNEVVLENVTENFNMWKNDMVEQMHEDIISLWDQSLKPCVKLTPLCVTLHCTNATSNVPLNCTGATQDVRCNTTESSGNSTTNSTKVSTTATDEIKNCTFNITTSTRENVEGRALFSDLDLVYNSSAQSYRLIRCNTSVITQACPKVSFEPIPIHYCAPAGFAILKCRDKGFNGTGPCKNVSTVQCTHGIRPVVSTHLLLNGSLAEGGVVIKSENFSNNAKTIIVQLAEAVNITCSRPNNNTRKRMSLGPGKVWYSTGDIIGDIRKAHCNLSGSAWNKTLHQVVAKLREQFENKTIIFKPPPGGDPEILMHNFICGGEFFYCNSTPLFNTTWHNSTWNSTMGNTEGSNDTNITLHCRIKQIINMWQGVGRAMYAPPIKGQIRCSSNITGILLTRDGGNNITTSTNETFRPGGGNMKDNWRSELYKYKVIKIEPLGVAPTKARRRVVQREKRAVGVIGAMFLGFLGAAGSTMGAASLTLTVQARQLLSGIVQQQNNLLKAIEAQQQLLRLTVWGIKQLQARVLAVERYLRDQQLLGIWGCSGKLICTTSVPWNASWSNKSVDDIWGNMTWMQWEREIDNYTGIIYNLLEKSQNQQEKNEQELLELDKWASLWNWFDISNWLWYIKIFIMVVGGLIGLRIVFAVLSIVNRVRQGYSPLSFQTRFPVPRGPDRPEGIEEGGGERDRGRSDRLVTGLLELIWDDLRSLCIFSYHRLSDLLLIAARIVELLGRRGWEALKYWWNLLQYWSQELKNSSVSLLNATAIAVAEGTDRIIEAVLRIYRAIIHIPTRIRQGLERALL
For B1, the “neutralization IC50” value in test [1] is 0.145 µg/mL; in test [2] it was 0.006 µg/mL. Further, the figures for the “neutralization IC80” value in test [3] and in test [4] were 1.82 µg/mL and 0.032 µg/mL, respectively.

B2: HIV-1 Env, reservoir clone (protein)
chain: MRVKGIKRNCQRLWRWGTMLLGMLMICSAADNLWVTVYYGVPVWKDATTTLFCASDAKGYETEVHNVWATHACVPTDPSPNEVVLENVTENFNMWKNDMVEQMHEDIISLWDQSLKPCVKLTPLCVTLHCTNATSNVPLNCTGATQDVRCNTTESSGNSTTNSTKVSTTATDEIKNCTFNITTSTRENVEGRALFSDLDLVYNSSAQSYRLIRCNTSVITQACPKVSFEPIPIHYCAPAGFAILKCRDKGFNGTGPCKNVSTVQCTHGIRPVVSTHLLLNGSLAEGGVVIKSENFSNNAKTIIVQLAEAVNITCSRPNNNTRKRMSLGPGKVWYSTGDIIGDIRKAHCNLSGSAWNKTLHQVVAKLREQFENKTIIFKPPPGGDPEILMHNFICGGEFFYCNSTPLFNTTWHNSTWNSTMGNTEGSNDTNITLHCRIKQIINMWQGVGRAMYAPPIKGQIRCSSNITGILLTRDGGNNITTSTNETFRPGGGNMKDNWRSELYKYKVIKIEPLGVAPTKARRRVVQREKRAVGVIGAMFLGFLGAAGSTMGAASLTLTVQARQLLSGIVQQQNNLLKAIEAQQQLLRLTVWGIKQLQARVLAVERYLRDQQLLGIWGCSGKLICTTSVPWNASWSNKSVDDIWGNMTWMQWEREIDNYTGIIYNLLEKSQNQQEKNEQELLELDKWASLWNWFDISNWLWYIKIFIMVVGGLIGLRIVFAVLSIVNRVRQGYSPLSFQTRFPVPRGPDRPEGIEEGGGERDRGRSDRLVTGLLELIWDDLRSLCIFSYHRLSDLLLIAARIVELLGRRGWEALKYWWNLLQYWSQELKNSSVSLLNATAIAVAEGTDRIIEAVLRIYRAIIHIPTRIRQGLERALL
On to B2, for which the figures for the “neutralization IC50” value in test [1] and in test [2] were 0.145 µg/mL and 0.006 µg/mL, respectively. Further, the results for the “neutralization IC80” value in test [3] and in test [4] were 1.82 µg/mL and 0.032 µg/mL, respectively.

B3: HIV-1 Env, reservoir clone (protein)
chain: MRVMGMLRNWQHLEKWGLLFLGLLIICSAKDNLWVTVYYGVPVWKEATTTLFCASDAKGYDKEAHNVWATHACVPTDPNPQEIWLKNVTENFNIWRNDMVEQMHTDIISLWDESLKPCVKITPLCVTLNCTNAKFNSTSANSTQEEPGAVQNCTFNTTTELRDKKQKVYALFYRLDLIPLKENNASNNASNEYILINCNTSIIKQACPKVSWDPIPIHYCAPAGYAILKCRDKKFNGTGPCKNVSTVQCTHGVKPVVSTQLLLNGSLAEEDIVIRSENISDNAKTIIVSLNEPVQINCTRPGNNTRKGIHLGPGQTFYARGDIIGDIRKAHCKINKSQWNKTLAQVSTKLKSLLNITGVVFKPPVGGDLEVTMHSFNCRGEFFYCNTSGLFNFSYSVPTNETITINETITIPCKIKQIINMWQGVGQAMYAPPIAGNITCNSNITGILLIRDGGPNSTNNDTFRPGGGDMRDNWRSELYKYKVVEIEPLGVAPTRARRQVVRRERRAVGIGAVFLGFLGAAGSTMGAASITLTVQARQLLSGIVQQQRNLLQAIEAQQHLLKLTVWGIKQLQARVLAVERYLKDQQLLGIWGCSGKLICTTSVPWNSSWSNRSLDEIWNNMTWIDWEREISNYSQEIYKLIEQSQNQQEKNEQELLALDKWASLWSWFDITNWLWYIKIFIMIVGGLIGLRIVFAVLAIVNRVRKGYSPLSLQTLIPSPRGPDRPDGIEEGGGEQGRDRSVRLVTGFLALVWDDLRNLCLFSYRHLRDFILIAARAVDRGLRRGWEILKYLWNLTKYWSQELKNSATSLFNSTAIVVAEGTDRIIEALQAVIRAVLHIPRRIRQGFERALL
Take B3: the “neutralization IC50” value in test [1] is above 50 µg/mL; in test [2] it was 48.6 µg/mL. Moreover, the “neutralization IC80” value in test [3] and in test [4] was above 50 µg/mL in each case.

B4: HIV-1 Env, reservoir clone (protein)
chain: MRVMGMLRNWQHLEKWGLLFLGLLIICSAKDNLWVTVYYGVPVWKEATTTLFCASDAKGYDKEAHNVWATHACVPTDPNPQEIWLKNVTENFNIWRNDMVEQMHTDIISLWDESLKPCVKITPLCVTLNCTNAKFNSTSANSTQEEPGAVQNCTFNTTTELRDKKQKVYALFYRLDLIPLKENNASNNASNEYILINCNTSIIKQACPKVSWDPIPIHYCAPAGYAILKCRDKKFNGTGPCKNVSTVQCTHGVKPVVSTQLLLNGSLAEEDIVIRSENISDNAKTIIVSLNEPVQINCTRPGNNTRKGIHLGPGQTFYARGDIIGDIRKAHCKINKSQWNKTLAQVSTKLKSLLNITGVVFKPPVGGDLEVTMHSFNCRGEFFYCNTSGLFNFSYSVPTNETITINETITIPCKIKQIINMWQGVGQAMYAPPIAGNITCNSNITGILLIRDGGPNSTNNDTFRPGGGDMRDNWRSELYKYKVVEIEPLGVAPTRARRQVVRRERRAVGIGAVFLGFLGAAGSTMGAASITLTVQARQLLSGIVQQQRNLLQAIEAQQHLLKLTVWGIKQLQARVLAVERYLKDQQLLGIWGCSGKLICTTSVPWNSSWSNRSLDEIWNNMTWIEWEREISNYSQEIYKLIEQSQNQQEKNEQELLALDKWASLWSWFDITNWLWYIKIFIMIVGGLIGLRIVFAVLAIVNRVRKGYSPLSLQTLIPSPRGPDRPDGIEEGGGEQGRDRSVRLVTGFLALVWDDLRNLCLFSYRHLRDFILIAARVVDRGLRRGWEILKYLWNLTKYWSQELKNSATSLFNSTAIVVAEGTDRIIEALQAVIRAVLHIPRRIRQGFERALL
Take B4: the “neutralization IC50” value in test [1] was above 50 µg/mL; in test [2] it was 49.5 µg/mL. In addition, the “neutralization IC80” value in test [3] and in test [4] was above 50 µg/mL each time.

B5: HIV-1 Env, reservoir clone (protein)
chain: MRVKGIKRNCQRLWKWGTMLLGMLMICSAADNLWVTVYYGVPVWKDATTTLFCASDAKGYETEVHNVWATHACVPTDPSPNEVVLENVTENFNMWKNDMVEQMHEDIISLWDQSLKPCVKLTPLCVTLKCTNATSCTSANATKNVRCDATDSSGNTTTNGTQGVTQGVRTETDEIKNCTFNITTSTRENVEGRALFSDLDLVYDSSAQSYRLIRCNTSVITQACPKVSFEPIPIHYCAPAGFAILKCRDKGFNGTGPCKNVSTVQCTHGIRPVVSTHLLLNGSLAEGKVVIRSENFTDNAKTIIVQLKEAVNMTCIRPNNNTRKRMSLGPGKVWYSTGDIIGDIRKAQCNLSSQAWNKTLHQVVAKLREQFENKTIIFKPPPGGDPEILMHNFNCGGEFFYCNSTPLFNTTWLNSTWNSTMDRNSSDTSEITLQCRIKQIINMWQGVGRAMYAPPIKGQIKCSSNITGLLLTRDGGNNITSTNETFRPGGGNMKDNWRSELYKYKVIKIEPLGVAPTKARRRVVQREKRAVGVIGAMFLGFLGAAGSTMGAASLTLTVQARQLLSGIVQQQNNLLKAIEAQQQLLRLTVWGIKQLQARVLAVERYLRDQQLLGIWGCSGKLICTTSVPWNASWSNKSVDDIWGNMTWMQWEREIDNYTGIIYNLLEKSQNQQEKNEQELLELDKWASLWNWFDISNWLWYIKIFIMVVGGLIGLRIVFAVLSVVNRVRQGYSPLSFQTRFPAPRGPDRPEGIEEGGGERDRGRSDRLVTGLLELIWDDLRSLCIFSYHRLSDLLLIAARIVELLGRRGWEVLKYWWNLLQYWSQELKNSAVSLLNATAIAVAEGTDRIIEAVLRIYRAIIHIPTRIRQGLERALL
With B5, the “neutralization IC50” value worked out at 0.013 µg/mL in test [1] and 0.003 µg/mL in test [2]. Besides, the “neutralization IC80” value in test [3] is 0.306 µg/mL; in test [4], 0.012 µg/mL.

B6: HIV-1 Env, reservoir clone (protein)
chain: MKVKGIRKNYQHLWRWGTMLLGMLMICSAADKLWVTVYYGVPVWKDATTTLFCASDAKAYDTEVHNVWATHACVPTDPDPQEVVLNVTENFNMWKNDMVGQMHEDIISLWDQSLKPCVKLTPLCVTLHCTNATFKNTTGAENATDTTNTTGEIEGKIKQEMKNCSFNVTTDIRDKMQKQYALFYKLDIVPIDNNDSYRLISCNTSVITQACPKVSFEPIPIHYCAPAGFAILKCNDKKFSGKGTCNNVSTVQCTHGIRPVVSTQLLLNGSLAEEDVVIRSDNFSDNAKTIIVQLNKTVKINCTRPGNNTRKSITVGPGRAFYGTEDIIGDIRKAHCNISRTDWNNTLKKVAEKLREKFENRTIAFNHSSGGDPEIVMHSFNCGGEFFYCNTTPLFKGTWNSTWNGNDTTESNSSTITLQCRIKQIINMWQEVGKAMYAPPIKGNIICSSNITGLLLTRDGGKTNETNTTIETFRPGGGDMRDNWRSELYKYKVVQIEPLGVAPTKAKRRVVQREKRAVTLGAMFLGFLGAAGSTMGAASMMLTVQARQLLSGIVQQQNNLLRAIEAQQHLLQLTVWGIKQLQARVLAVERYLRDQQLLGIWGCSGKLICPTAVPWNASWSNKSLDIIWNNMTWMQWEKEISNYTGLIYSLIEESQNQQEKNEQELLELDKWDSLWNWFSITKWLWYIKIFIMIVGGLIGLRIIFAVLSIVNRVRQGYSPLSLQTLLPAPRGPDRPEGIEEEGGERERDRSGRLVTGLLELIWEDLRSLCLFSYHRLRDLLLITARTVGLLGSRGWEILKYLWNLLQYWSQELKSSAISLFNTTAITVAEGTDRVIEVVLRVFRAIRNIPRRIRQGFERALQ
Regarding B6, the “neutralization IC50” value was determined as 1.54 µg/mL in test [1] and 0.295 µg/mL in test [2]. The results for the “neutralization IC80” value in test [3] and in test [4] were 9.2 µg/mL and 0.998 µg/mL, respectively.
